# Test results as given in patent US11877996B1 (priority 2023, dated 2024).
# Legend:
# [1] = system: human cell lines (HEK293, THP-1, macrophage, HepG2, Caco-2); assay: Membrane permeability in human cell lines (total arsenic by ICP-MS); conditions: 100 μM AST, 48 h, Caco2
# human erythrocytes = assay: Permeability and stability in human erythrocytes (RBC and iRBC); conditions: 100 μM AST, 48 h
compound,measurement,setting,value
"C[As](=O)(O)CC[C@H](N)C(=O)O [AST, 2-amino-4-(hydroxymethylarsinoyl)butanoate]","total arsenic level in cells, rank among cell types",[1],highest
same,predominant arsenic species in the culture medium of erythrocytes (stability),human erythrocytes,almost exclusively AST
same,uptake by erythrocytes,human erythrocytes; RBC and iRBC (regardless of malaria infection),took up little AST
